Positions count from the first letter of the chain named.
What was measured:
Test in all cases: cell-based or functional assay
[1] = biological target: HIV-1 Env of isolate MG RM-C-001 (HIV-1)
[2] = biological target: HIV-1 Env of isolate MG RM-C-002 (HIV-1)
[3] = biological target: HIV-1 Env of isolate MG RM-C-004 (HIV-1)
[4] = biological target: HIV-1 Env of isolate MG RM-C-005 (HIV-1)
[5] = biological target: HIV-1 Env of isolate MG RM-C-006 (HIV-1)
[6] = biological target: HIV-1 Env of isolate MG RM-C-007 (HIV-1)
[7] = biological target: HIV-1 Env of isolate MG RM-C-008 (HIV-1)
[8] = biological target: HIV-1 Env of isolate MG RM-C-009 (HIV-1)
[9] = biological target: HIV-1 Env of isolate MG RM-C-010 (HIV-1)
[10] = biological target: HIV-1 Env of isolate MG RM-C-012 (HIV-1)
[11] = biological target: HIV-1 Env of isolate MG RM-C-013 (HIV-1)
[12] = biological target: HIV-1 Env of isolate MG RM-C-014 (HIV-1)
[13] = biological target: HIV-1 Env of isolate MG RM-C-015 (HIV-1)
[14] = biological target: HIV-1 Env of isolate MG RM-C-017 (HIV-1)
[15] = biological target: HIV-1 Env of isolate MG RM-C-019 (HIV-1)
[16] = biological target: HIV-1 Env of isolate MG RM-C-001 (subtype C) (HIV-1)
[17] = biological target: HIV-1 Env of isolate MG RM-C-002 (subtype C) (HIV-1)
[18] = biological target: HIV-1 Env of isolate MG RM-C-004 (subtype C) (HIV-1)
[19] = biological target: HIV-1 Env of isolate MG RM-C-005 (subtype C) (HIV-1)
[20] = biological target: HIV-1 Env of isolate MG RM-C-006 (subtype C) (HIV-1)
[21] = biological target: HIV-1 Env of isolate MG RM-C-007 (subtype C) (HIV-1)
[22] = biological target: HIV-1 Env of isolate MG RM-C-008 (subtype C) (HIV-1)
[23] = biological target: HIV-1 Env of isolate MG RM-C-009 (subtype C) (HIV-1)
[24] = biological target: HIV-1 Env of isolate MG RM-C-010 (subtype C) (HIV-1)
[25] = biological target: HIV-1 Env of isolate MG RM-C-012 (subtype C) (HIV-1)
[26] = biological target: HIV-1 Env of isolate MG RM-C-013 (subtype C) (HIV-1)
[27] = biological target: HIV-1 Env of isolate MG RM-C-014 (subtype C) (HIV-1)
[28] = biological target: HIV-1 Env of isolate MG RM-C-015 (subtype C) (HIV-1)
[29] = biological target: HIV-1 Env of isolate MG RM-C-017 (subtype C) (HIV-1)
HIV-1 94UG103 Env = HIV-1 94UG103 Env (HIV-1)
HIV-1 92RW020 Env = HIV-1 92RW020 Env (HIV-1)
HIV-1 93UG077 Env = HIV-1 93UG077 Env (HIV-1)
HIV-1 92BR020 Env = HIV-1 92BR020 Env (HIV-1)
HIV-1 APV-13 Env = HIV-1 APV-13 Env (HIV-1)
HIV-1 APV-17 Env = HIV-1 APV-17 Env (HIV-1)
HIV-1 APV-6 Env = HIV-1 APV-6 Env (HIV-1)
HIV-1 93IN905 Env = HIV-1 93IN905 Env (HIV-1)
HIV-1 IAVI-C18 Env = HIV-1 IAVI-C18 Env (HIV-1)
HIV-1 IAVI-C22 Env = HIV-1 IAVI-C22 Env (HIV-1)
HIV-1 IAVI-C3 Env = HIV-1 IAVI-C3 Env (HIV-1)
HIV-1 92UG024 Env = HIV-1 92UG024 Env (HIV-1)
HIV-1 92UG005 Env = HIV-1 92UG005 Env (HIV-1)
HIV-1 92TH021 Env = HIV-1 92TH021 Env (HIV-1)
HIV-1 CMU02 Env = HIV-1 CMU02 Env (HIV-1)
HIV-1 NL43 Env = HIV-1 NL43 Env (HIV-1)

B1: PGT-127 monoclonal antibody (5145_B14) (antibody, V domains shown)
VH: QPQLQESGPGLVEASETLSLTCTVSGDSTGRCNYFWGWVRQPPGKGLEWIGSLSHCRSYYNTDWTYHNPSLKSRLTISLDTPKNQVFLRLTSVTAADTATYYCARFGGEVLVYRDWPKPAWVDLWGRGTLVVTVS
VL: QSALTQPPSASGSPGQSITISCTGTSNNFVSWYQQYPGKAPKLVIYEVNKRPSGVPDRFSGSKSGSTASLTVSGLQADDEGVYYCSSLVGNWDVIFGGGTKLTVL
neutralization IC50 [1]: > 50 µg/mL | neutralization IC50 [2]: 0.057 µg/mL | neutralization IC50 [3]: 0.532 µg/mL | neutralization IC50 [4]: 0.57 µg/mL | neutralization IC50 [5]: 0.319 µg/mL | neutralization IC50 [6]: > 50 µg/mL | neutralization IC50 [7]: > 50 µg/mL | neutralization IC50 [8]: > 50 µg/mL | neutralization IC50 [9]: > 50 µg/mL | neutralization IC50 [10]: 1.07 µg/mL | neutralization IC50 [11]: > 50 µg/mL | neutralization IC50 [12]: > 50 µg/mL | neutralization IC50 [13]: > 50 µg/mL | neutralization IC50 [14]: 3.4 µg/mL | neutralization IC50 [15]: 0.017 µg/mL

B2: 4993_K13 (PGT-141) (antibody, V domains shown)
VH: QVQLVQSGPEVKKPGSSVKVSCKASGNTFSKYDVHWVRQATGQGLEWVGWMSHEGDKTESAQRFKGRVTFTRDTSASTAYMELRGLTSDDTAIYYCTRGSKHRLRDYVLYDDYGLINYQEWNDYLEFLDVWGHGTAVTVSS
VL: DTVVTQSPLSLPVTPGEAASMSCSSTQSLRHSNGANYLAWYQHKPGQSPRLLIRLGSQRASGVPDRFSGSGSGTHFTLKISRVEAEDAAIYYCMQGLNRPWTFGKGTKLEIK
IC50 [16]: > 50 µg/mL | IC50 [17]: 7.83 µg/mL | IC50 [18]: > 50 µg/mL | IC50 [19]: 8.83 µg/mL | IC50 [20]: 0.33 µg/mL | IC50 [21]: > 50 µg/mL | IC50 [22]: > 50 µg/mL | IC50 [23]: 0.143 µg/mL | IC50 [24]: 0.411 µg/mL | IC50 [25]: > 50 µg/mL | IC50 [26]: > 50 µg/mL | IC50 [27]: 11.8 µg/mL | IC50 [28]: 0.033 µg/mL | IC50 [29]: 4.02 µg/mL

B3: 4995_E20 (PGT-142) (antibody, V domains shown)
VH: B2 VH with M51I, G55R, S77T
VL: B2 VL
IC50 [16]: > 50 µg/mL | IC50 [17]: 10.5 µg/mL | IC50 [18]: > 50 µg/mL | IC50 [19]: 1.85 µg/mL | IC50 [20]: 0.478 µg/mL | IC50 [21]: > 50 µg/mL | IC50 [22]: > 50 µg/mL | IC50 [23]: 0.061 µg/mL | IC50 [24]: 0.07 µg/mL | IC50 [25]: > 50 µg/mL | IC50 [26]: > 50 µg/mL | IC50 [27]: 6.02 µg/mL | IC50 [28]: 0.038 µg/mL | IC50 [29]: 1.11 µg/mL

B4: 4980_N08 (PGT-143) (antibody, V domains shown)
VH: B2 VH with V5E, P9A
VL: B2 VL with S24T, A85P
IC50 [16]: > 50 µg/mL | IC50 [17]: 6.77 µg/mL | IC50 [18]: > 50 µg/mL | IC50 [19]: 9.19 µg/mL | IC50 [20]: 0.369 µg/mL | IC50 [21]: > 50 µg/mL | IC50 [22]: > 50 µg/mL | IC50 [23]: 0.121 µg/mL | IC50 [24]: 0.171 µg/mL | IC50 [25]: > 50 µg/mL | IC50 [26]: > 50 µg/mL | IC50 [27]: 8.81 µg/mL | IC50 [28]: 0.085 µg/mL | IC50 [29]: 5.17 µg/mL

B5: 4970_K22 (PGT-144) (antibody, V domains shown)
VH: B2 VH with P9A, S30R, T69S, T74N, M81I, R98G, Y118Q
VL: B2 VL with P12S, S24T, E86D
IC50 [16]: > 50 µg/mL | IC50 [17]: > 50 µg/mL | IC50 [18]: > 50 µg/mL | IC50 [19]: > 50 µg/mL | IC50 [20]: 48.9 µg/mL | IC50 [21]: > 50 µg/mL | IC50 [22]: > 50 µg/mL | IC50 [23]: 0.561 µg/mL | IC50 [24]: 7.62 µg/mL | IC50 [25]: > 50 µg/mL | IC50 [26]: > 50 µg/mL | IC50 [27]: > 50 µg/mL | IC50 [28]: 0.236 µg/mL | IC50 [29]: 23 µg/mL

B6: 1460_G14 (PGG14) (antibody, V domains shown)
VH: QVLLVQSGTEVKKPGSSVKVSCQASGGAFSSYAFSWVRQAPGQGLEWMGMITPVFGETKYAPRFQGRLTLTAEESLSTTYMELRSLTSDDTAFYYCTRDRRVVPMATDNWLDPWGQGTLVTVSS
VL: DIQLTQSPSSLSASVGDRVTVTCRASQTIHTYLNWYQQIPGKAPKLLIYGASTLQSGVPSRFSGSGSGTDFTLTINSLQPEDFATYYCQQSYSTPRTFGQGTRLDIKR
neutralization IC50 (HIV-1 94UG103 Env): > 50 µg/mL | neutralization IC50 (HIV-1 92RW020 Env): > 50 µg/mL | neutralization IC50 (HIV-1 93UG077 Env): > 50 µg/mL | neutralization IC50 (HIV-1 92BR020 Env): > 50 µg/mL | neutralization IC50 (HIV-1 APV-13 Env): > 50 µg/mL | neutralization IC50 (HIV-1 APV-17 Env): > 50 µg/mL | neutralization IC50 (HIV-1 APV-6 Env): > 50 µg/mL | neutralization IC50 (HIV-1 93IN905 Env): > 50 µg/mL | neutralization IC50 (HIV-1 IAVI-C18 Env): > 50 µg/mL | neutralization IC50 (HIV-1 IAVI-C22 Env): > 50 µg/mL | neutralization IC50 (HIV-1 IAVI-C3 Env): > 50 µg/mL | neutralization IC50 (HIV-1 92UG024 Env): > 50 µg/mL | neutralization IC50 (HIV-1 92UG005 Env): > 50 µg/mL | neutralization IC50 (HIV-1 92TH021 Env): > 50 µg/mL | neutralization IC50 (HIV-1 CMU02 Env): > 50 µg/mL | neutralization IC50 (HIV-1 NL43 Env): 0.172 µg/mL

B7: 1456_P20 (PG20) (antibody, V domains shown)
VH: QVRLVQSGPEVKKPGSSVTVSCQASGGTFSSYAFTWVRQAPGQGLEWLGMVTPIFGEAKYSQRFEGRVTITADESTSTTSIELRGLTSEDTAIYYCARDRRAVPIATDNWLDPWGQGTLVTVSS
VL: B6 VL with T20S, V21I, H30N, T31N, I39T, T53N, S56N, N76S, Y92F
neutralization IC50 (HIV-1 94UG103 Env): > 50 µg/mL | neutralization IC50 (HIV-1 92RW020 Env): > 50 µg/mL | neutralization IC50 (HIV-1 93UG077 Env): > 50 µg/mL | neutralization IC50 (HIV-1 92BR020 Env): > 50 µg/mL | neutralization IC50 (HIV-1 APV-13 Env): > 50 µg/mL | neutralization IC50 (HIV-1 APV-17 Env): > 50 µg/mL | neutralization IC50 (HIV-1 APV-6 Env): 25.8 µg/mL | neutralization IC50 (HIV-1 93IN905 Env): > 50 µg/mL | neutralization IC50 (HIV-1 IAVI-C18 Env): > 50 µg/mL | neutralization IC50 (HIV-1 IAVI-C22 Env): > 50 µg/mL | neutralization IC50 (HIV-1 IAVI-C3 Env): > 50 µg/mL | neutralization IC50 (HIV-1 92UG024 Env): > 50 µg/mL | neutralization IC50 (HIV-1 92UG005 Env): > 50 µg/mL | neutralization IC50 (HIV-1 92TH021 Env): > 50 µg/mL | neutralization IC50 (HIV-1 CMU02 Env): > 50 µg/mL | neutralization IC50 (HIV-1 NL43 Env): 0.188 µg/mL

B8: 4995_P16 (PGT-145) (antibody, V domains shown)
VH: QVQLVQSGAEVKKPGSSVKVSCKASGNSFSNHDVHWVRQATGQGLEWMGWMSHEGDKTGLAQKFQGRVTITRDSGASTVYMELRGLTADDTAIYYCLTGSKHRLRDYFLYNEYGPNYEEWGDYLATLDVWGHGTAVTVSS
VL: EVVITQSPLFLPVTPGEAASLSCKCSHSLQHSTGANYLAWYLQRPGQTPRLLIHLATHRASGVPDRFSGSGSGTDFTLKISRVESDDVGTYYCMQGLHSPWTFGQGTKVEIK
IC50 [16]: > 50 µg/mL | IC50 [17]: 0.008 µg/mL | IC50 [18]: > 50 µg/mL | IC50 [19]: > 50 µg/mL | IC50 [20]: 0.01 µg/mL | IC50 [21]: > 50 µg/mL | IC50 [22]: > 50 µg/mL | IC50 [23]: 0.193 µg/mL | IC50 [24]: 0.141 µg/mL | IC50 [25]: 6.98 µg/mL | IC50 [26]: > 50 µg/mL | IC50 [27]: 5.82 µg/mL | IC50 [28]: 0.12 µg/mL | IC50 [29]: > 50 µg/mL
